According to patent publication US20100291591A1, “NOVEL PLATING MEDIA” (priority 2007, published 2010):

Tested on: S. aureus
Test: Tolerance of S. aureus towards ELF phosphate in S. aureus plating media
Assay type: cell-based
From the text: Varying concentrations of ELF® phosphate in S. aureus plating media were used to determine the effect on growth and sensitivity of S. aureus to ELF® phosphate. Colony growth in the presence of ELF® phosphate was compared to colony growth in media without ELF® phosphate.

`O=P(O)(O)O.O=c1[nH]c(-c2cc(Cl)ccc2O)nc2ccc(Cl)cc12` [ELF ® Phosphate, 6-chloro-2-(5-chloro-2-hydroxyphenyl)-quinazolin-4(3H)-one phosphate] was tested, and the “Sensitivity (time until appearance of distinct colonies at 360 nm)” value (ELF phosphate 0.080 g/L) was 24 to 48 h, the “Sensitivity (time until appearance of distinct colonies at 360 nm)” value (ELF phosphate 0.200 g/L) was 12 to 16 h and the “Sensitivity (time until appearance of distinct colonies at 360 nm)” value (ELF phosphate 0.400 g/L) was 10 to 12 h. For the same compound, the “Sensitivity (time until appearance of distinct colonies at 360 nm)” value (ELF phosphate 0.600 g/L) was 10 to 12 h and the “concentration up to which sensitivity increased, then leveled off” value (S. aureus plating media) was “about 400 mg/L”.
